Compound potency records, mixed from different reports. Data source: NIAID ChemDB in PubChem.

All rows: growth or infection tests; species: HIV-1; measure: EC50

Conditions beyond the fields shown may differ between rows.

structure | strain or isolate | mutations | cell line | method | setting | value
Nc1nc(=O)n([C@@H]2CS[C@H](CO)O2)cc1F | RTMC (RT D67N K70R T215F K219Q) | RT-D67N K70R T215F K219Q | HT4 + HT4 LacZ-1 | plaque count |  | 0.64 µM
Cc1cc(C#N)cc(C)c1Oc1nc(Nc2ccc(C#N)cc2)nc(N)c1Br | Clinical isolate | N348I | HEK293T | luciferase | clinical isolate | 0.00426 µM
C#C[C@]1(CO)O[C@@H](n2cnc3c(N)nc(F)nc32)C[C@@H]1O | Clinical isolate | M41L/A114S | MT4-GFP | fluorescence |  | 0.00331 µM
S=C(NCCc1cccs1)Nc1ccc(Br)cn1 | U317-8 Clinical isolate NRTI-resistant | RT-M41L L210W T215Y | HT4 + HeLa | plaque count |  | 0.0479 µM
CCn1nc(Cc2ccc(OCc3ccccc3)cc2)cc1C1CCN(C[C@H]2CN([C@@H](C(=O)O)C(C)(C)C)C[C@@H]2c2cccc(F)c2)CC1 | BaL |  | HeLa | β-galactosidase | 50% human serum | <0.3 µM
Cc1cn([C@H]2C=C[C@@H](CO)O2)c(=O)[nH]c1=O | HXB2 | RT-A62V V75I F77L F116Y Q151M | MAGI (CCR5) + MAGI | β-galactosidase |  | 64 µM
Cc1ccc(NC(=O)CSc2nnc(C)n2-c2ccccc2Cl)c(Cl)c1 | NL4-3 | RT-K103N Y181C | HeLa + HeLa-JC53 | luciferase |  | 0.1 µM
Cc1cn([C@H]2C[C@H](N=[N+]=[N-])[C@@H](CO)O2)c(=O)[nH]c1=O | NRTI resistant | RT-K65R | HeLa | luciferase |  | 0.0098 µM
CC[C@H](C)[C@H](C(=O)O)N1C[C@H](CN2CCC(c3cc(Cc4ccc(S(=O)(=O)c5ccccc5)cc4)nn3CC)CC2)[C@@H](c2cccc(F)c2)C1 | BaL |  | HeLa | β-galactosidase | 50% human serum | <0.011 µM
Nc1ccn([C@H]2CC[C@@H](CO)O2)c(=O)n1 | RTMN(184) (RT M41L M184V T215Y) | RT-M41L M184V T215Y | HT4 + HT4 LacZ-1 | plaque count |  | 1.57 µM
CCCCOc1ccc(Cc2cc(C3CCN(C[C@H]4CN([C@@H](C(=O)O)C(C)(C)C)C[C@@H]4c4cccc(F)c4)CC3)n(CC)n2)cc1 | BaL |  | HeLa | β-galactosidase |  | <0.0012 µM
O=c1c2ccccc2n2nnc3ccc(NCCCN4CCN(CCCNc5ccc6nnn7c8ccccc8c(=O)c5c67)CC4)c1c32 | CLADE E |  | PBL | p24 |  | 0.008 µM
Cc1ccnc2c1NC(=O)c1cccnc1N2C1CC1 | HIVRTMF (RT L74V Y181C) | RT-L74V Y181C T215Y | HT4 + HT4 LacZ-1 | plaque count |  | 3.2 µM
Cc1ccnc2c1NC(=O)c1cccnc1N2C1CC1 | NNRTI-resistant (RT K103N) | RT-K103N | MAGI | β-galactosidase |  | 5.8 µM
CCn1nc(Cc2ccc(C#N)cc2)cc1C1CCN(C[C@H]2CN([C@@H](C(=O)O)C(C)C)C[C@@H]2c2cccc(F)c2)CC1 | BaL |  | HeLa | β-galactosidase |  | <0.0012 µM
COc1cc(-n2c(C)nnc2SCC(=O)Nc2ccc(S(N)(=O)=O)cc2Cl)c2ncccc2c1 | NL4-3 | RT-Y188L | HeLa + HeLa-JC53 | luciferase |  | 0.37 µM
CC[C@@H](C)[C@H](C(=O)O)N1C[C@H](CN2CCC(c3cc(Cc4ccc(OC(F)F)cc4)nn3CC)CC2)[C@@H](c2cccc(F)c2)C1 | BaL |  | HeLa | β-galactosidase | 50% human serum | <0.011 µM
CC(C)OC(=O)OCOP(=O)(CO[C@H](C)Cn1cnc2c(N)ncnc21)OCOC(=O)OC(C)C | NL4-3 | A114S/M184V | TZM-gfp | GFP |  | 0.04 µM
Cc1cn([C@H]2C[C@H](N=[N+]=[N-])[C@@H](CO)O2)c(=O)[nH]c1=O | A036B (RT-WT) |  | HT4 + HT4-6C | plaque count |  | 0.01 µM
Cc1ccc(NC(=O)CSc2nnc(C)n2-c2cccc3ccccc23)c(Cl)c1 | NL4-3 | RT-Y188L | HeLa + HeLa-JC53 | luciferase |  | 0.59 µM
O=c1[nH]cnc2c1ncn2[C@H]1CC[C@@H](CO)O1 | GB8 |  | JM | p24 |  | 4.4 µM
COC(=O)[C@H](C)NP(=O)(OC[C@@H]1C=C[C@H](n2cc(C)c(=O)[nH]c2=O)O1)Oc1ccc(Br)cc1 | C467-4 Clinical isolate ZDV-resistant | RT-K20R D67N K70R Y188L T215F K219Q | PBMC | p24 |  | 0.042 µM
C#C[C@@]1(CO)C=C[C@H](n2cc(C)c(=O)[nH]c2=O)O1 | NL4-3 WT |  | MAGI (CCR5) + MAGI | β-galactosidase |  | 0.27 µM
O=C1O[C@H]2[C@@H]3OC(=O)c4cc(O)c(O)c(O)c4-c4c(cc(O)c(O)c4O)C(=O)OC[C@H]2O[C@@H](OC(=O)c2cc(O)c(O)c(O)c2)[C@@H]3OC(=O)c2cc(O)c(O)c3c2[C@@H]2C1=CC(=O)[C@](O)(O3)C2(O)O | NRTI resistant (RT K65R M184V) ARP1006 | RT-K65R M184V | MAGI |  |  | 2.4 µg/mL
Cc1ccc(-n2c(SCC(=O)Nc3ccc(C)cc3Br)nnc2C2CC2)cc1 | NL4-3 | RT-K103N Y181C | HeLa + HeLa-JC53 | luciferase |  | >10 µM
CC(=O)c1ccc(C)cc1NC(C(N)=O)c1c(Cl)cccc1Cl | IIIB | RT-V189I | MAGI | MTT |  | 0.22 µM
CCc1c(C(=O)c2cc(C)cc(C)c2)n(CC2CC=CC2)c(=O)[nH]c1=O | CLADE D |  | PBMC | cytopathic effect / XTT | clinical isolate | 0.0008 µM
Nc1ccn([C@H]2CC[C@@H](CO)O2)c(=O)n1 | HXB2D |  | CBMC | p24 |  | 0.8 ± 0.1 µM
Cc1cn([C@H]2C[C@H](N=[N+]=[N-])[C@@H](CO)O2)c(=O)[nH]c1=O | Q252-2 Clinical isolate ZDV-resistant | RT-M41L L210W T215Y | HT4 + HeLa | syncytia |  | 2.8 µM
Cc1ccnc2c1NC(=O)c1cccnc1N2C1CC1 |  | Y181C |  | RT activity / fluorescence |  | >42 µM
CCn1nc(Cc2ccc(S(=O)(=O)c3ccccc3)cc2)cc1C1CCN(C[C@H]2CN([C@@H](C(=O)O)C3CCCCC3)C[C@@H]2c2cccc(F)c2)CC1 | BaL |  | HeLa | β-galactosidase | 50% human serum | <0.033 µM
Cn1c2ccccc2c2c1cc(C#N)c(=O)n2-c1ccc([N+](=O)[O-])cc1 | NRTI resistant | RT-D67N T69N M184V T215F K219Q | HeLa | luciferase |  | 0.052 µM
Cc1ccc(-n2cnnc2SCC(=O)Nc2ccc(C)cc2Br)cc1 | NL4-3 | RT-K103N Y181C | HeLa + HeLa-JC53 | luciferase |  | >10 µM
O=c1[nH]cnc2c1ncn2[C@H]1CC[C@@H](CO)O1 | Recombinant | RT-M41L S68N G112S M184V | HeLa | luciferase |  | 3.69 µM
C/C(=C(/CCOC(=O)C(C)C)SS/C(CCOC(=O)C(C)C)=C(\C)N(C=O)Cc1cnc(C)nc1N)N(C=O)Cc1cnc(C)nc1N | RF |  | U-937/HIV-1(RF) + U-937 | p24 |  | >50 µM
CC(=O)N1CCC(C(=O)N(CCCN2CCC(Cc3ccc(C(N)=O)cc3)CC2)c2ccc(C)c(Cl)c2)CC1 | R5 subtype B_10 recombinant |  | U87 (CD4+ CCR5+) + U87 | luciferase |  | 0.034 µM
Cc1ccnc2c1NC(=O)c1cccnc1N2C1CC1 | NL4-3 | V106M | C8166 | p24 / ELISA |  | 3.14 µM

5 of the rows above, restated:

structure	strain or isolate	mutations	cell line	method	setting	value
C#C[C@@]1(CO)C=C[C@H](n2cc(C)c(=O)[nH]c2=O)O1	NL4-3 WT		MAGI (CCR5) + MAGI	β-galactosidase		0.27 µM
Nc1ccn([C@H]2CC[C@@H](CO)O2)c(=O)n1	HXB2D		CBMC	p24		0.8 ± 0.1 µM
Cc1ccc(-n2c(SCC(=O)Nc3ccc(C)cc3Br)nnc2C2CC2)cc1	NL4-3	RT-K103N Y181C	HeLa + HeLa-JC53	luciferase		>10 µM
CCn1nc(Cc2ccc(S(=O)(=O)c3ccccc3)cc2)cc1C1CCN(C[C@H]2CN([C@@H](C(=O)O)C3CCCCC3)C[C@@H]2c2cccc(F)c2)CC1	BaL		HeLa	β-galactosidase	50% human serum	<0.033 µM
C/C(=C(/CCOC(=O)C(C)C)SS/C(CCOC(=O)C(C)C)=C(\C)N(C=O)Cc1cnc(C)nc1N)N(C=O)Cc1cnc(C)nc1N	RF		U-937/HIV-1(RF) + U-937	p24		>50 µM

ECn is the concentration giving n% inhibition of infection, replication or growth. An empty or dashed field is not shown.